A mixed list of measured activities; the numbers were collected in NIAID ChemDB.

Common to all: toxicity to cultured cells; cell line: H9; endpoint: CC50

Blank or dashed fields: not listed here. Conditions beyond the fields shown may differ between rows. CCn is the concentration with n% toxicity to the cells.

CCc1cc(NCc2nc3c(Cl)ccc(Cl)c3o2)c(=O)[nH]c1C ; value: >60 µM
CC1OC(O)C2OC(=O)c3cc(O)c(O)c(O)c3-c3c(cc(O)c(O)c3O)C(=O)OC2C1O ; value: 15 µM
CC(C)[C@H](NC(=O)N(C)Cc1ccccn1)C(=O)N[C@@H](Cc1ccccc1)[C@@H](O)[C@H](O)[C@H](Cc1ccccc1)NC(=O)[C@@H](NC(=O)N(C)Cc1ccccn1)C(C)C ; read by: trypan blue ; value: >100 µM
[N-]=[N+]=NCc1cc(CN=[N+]=[N-])cc(C(=O)CC(=O)C(=O)O)c1 ; read by: XTT ; value: 60 µM
O=c1[nH]cnc2c1ncn2[C@H]1CC[C@@H](CO)O1 ; value: 1450 µM
Cc1cn([C@H]2C[C@H](N=[N+]=[N-])[C@@H](CO)O2)c(=O)[nH]c1=O ; value: 1872 µM
Oc1cc(O)c2c(c1)O[C@H](c1ccc(O)c(O)c1)[C@H](O)C2 ; value: 45 µM
COc1c2ccoc2cc2oc(=O)ccc12 ; value: 208.3 µM
COc1cc2c(c(OC)c1OC)-c1ccc(=O)c(OC)cc1[C@@H](N)CC2 ; value: 2.8 µM
CC(C)C(NC(=O)OCc1ccncc1)C(=O)N[C@@H](Cc1ccccc1)C(O)[C@H](Cc1ccccc1)NC(=O)C(NC(=O)OCc1ccncc1)C(C)C ; read by: trypan blue ; value: >100 µM
O=c1c(O[C@@H]2O[C@H](CO)[C@H](O)[C@H](O)[C@H]2O[C@@H]2OC[C@@H](O)[C@H](O)[C@H]2O)c(-c2ccc(O)c(O)c2)oc2cc(O)cc(O)c12 ; read by: cell count ; value: >100 µg/mL
COc1c(O)ccc2c1cnc1c3cc4c(cc3ccc21)OCO4 ; read by: cell count ; value: 22.6 µg/mL
CC1(C)Oc2ccc3ccc(=O)oc3c2[C@@H](OC(=O)C23CCC(C)(C(=O)O2)C3(C)C)[C@H]1OC(=O)C12CCC(C)(C(=O)O1)C2(C)C ; value: >16.1 µM
COc1cc2c(c3ccccc3n2C)c2c(Cl)nccc12 ; value: 26 µg/mL
Cc1cn([C@H]2C[C@H](N=[N+]=[N-])[C@@H](CO)O2)c(=O)[nH]c1=O ; value: 1871 µM
CC(C)[C@H](NC(=O)N(C)Cc1ccccn1)C(=O)N[C@@H](Cc1ccccc1)[C@@H](O)[C@H](O)[C@H](Cc1ccccc1)NC(=O)[C@@H](NC(=O)N(C)Cc1ccccn1)C(C)C ; value: >100 µM
CC(C)[C@H](NC(=O)OCc1cccnc1)C(=O)N[C@@H](Cc1ccccc1)[C@@H](O)[C@@H](O)[C@H](Cc1ccccc1)NC(=O)OC(C)(C)C ; read by: trypan blue ; value: 45 µM
Cc1cn([C@H]2C[C@H](N=[N+]=[N-])[C@@H](CO)O2)c(=O)[nH]c1=O ; value: >1000 µM
O=C(O[C@@H]1OC2CC(=O)c3cc(O)c(O)c(O)c3-c3c(cc(O)c(O)c3O)C(=O)OC2C2OC(=O)c3cc(O)c(O)c(O)c3-c3c(cc(O)c(O)c3O)C(=O)OC21)c1cc(O)c(O)c(O)c1 ; value: 32 µM
CC(C)(S)[C@@H](N)C(=O)O ; value: >500 µg/mL
CC(C)=CCC/C(C)=C/CN1CCc2cc(O)c(O)cc2[C@H]1C ; read by: MTT ; value: 20.23 µg/mL
CCC(C1=C(O)C2CCCCC2OC1=O)c1cccc(NS(=O)(=O)c2ccc(C#N)cc2)c1 ; value: >30 µM
Cc1cc(=O)oc2c3c(ccc12)OC(C)(C)[C@H](OC(=O)C12CCC(C)(C(=O)O1)C2(C)C)[C@@H]3OC(=O)C12CCC(C)(C(=O)O1)C2(C)C ; value: 39.3 µM
Cc1cn([C@H]2C=C[C@@H](CO)O2)c(=O)[nH]c1=O ; value: 75.2 µM
COc1cccc2sc(-c3ccccc3)cc(=O)c12 ; value: 7 µg/mL
COc1cc2c(c3cc(O)ccc3n2C)c2c(Cl)nccc12 ; value: 5 µg/mL
CC(C)[C@H](NC(=O)OCc1ccccc1)C(=O)N[C@@H](Cc1ccccc1)[C@H](O)[C@H](Cc1ccccc1)NC(=O)[C@@H](NC(=O)OCc1ccncc1)C(C)C ; read by: trypan blue ; value: 15 µM
CC1(C)OC1COc1c2ccoc2cc2oc(=O)ccc12 ; value: 139.9 µM
COc1cc2c(c3ccccc3n2C)c2c(NCCN)nccc12 ; value: 0.23 µg/mL
C/C=C(/C)C(=O)OC(C)(C)[C@@H]1Cc2c(ccc3ccc(=O)oc23)O1 ; value: 13.1 µM
COc1cc2c(c(OC)c1OC)-c1ccc(=O)c(OC)cc1[C@@H](NC(=O)C(F)(F)F)CC2 ; value: 0.66 µM
Nc1cccc2sc(-c3ccccc3)cc(=O)c12 ; value: 50 µg/mL
O=c1[nH]c(=O)n([C@H]2C[C@H](F)[C@@H](CO)O2)cc1Cl ; value: >500 µM
CC1(C)CC[C@]2(C(=O)O)CC[C@]3(C)C(=CC[C@@H]4[C@@]5(C)C[C@@H](O)[C@@H]6OC(=O)c7cc(O)c(O)c(O)c7-c7c(cc(O)c(O)c7O)C(=O)OC[C@@]6(CO)[C@@H]5CC[C@]43C)[C@@H]2C1 ; value: 40 µM
COc1cc(/C=C/C(=O)N[C@H]2CCc3cc(OC)c(OC)c(OC)c3-c3ccc(OC)c(=O)cc32)cc(OC)c1OC ; value: 0.0055 µM
CCC(C1=C(O)C2CCCCCCC2OC1=O)c1cccc(NS(=O)(=O)c2ccc(C#N)cn2)c1 ; value: >30 µM
Cc1cn([C@H]2C[C@H](N=[N+]=[N-])[C@@H](CO)O2)c(=O)[nH]c1=O ; value: 500 µg/mL
COc1cc2cc(Oc3ccc4ccc(=O)oc4c3)c(=O)oc2cc1O ; value: 22.7 µM
CC(=O)Oc1cc2sc(-c3ccccc3)cc(=O)c2cc1OC(C)=O ; value: 3 µg/mL
Cc1cn([C@H]2C[C@H](N=[N+]=[N-])[C@@H](CO)O2)c(=O)[nH]c1=O ; read by: MTT ; value: 500 µg/mL
O=c1[nH]c(=O)n([C@H]2C[C@H](F)[C@@H](CO)O2)cc1Br ; value: >500 µM
COc1cc2c(c(OC)c1OC)-c1ccc(OC)c(=O)cc1[C@@H](NC(=O)C(F)(F)F)CC2 ; value: 0.0066 µM
COc1ccc(C[C@@H]2c3cc(Oc4cc(C[C@@H]5c6cc(O)c(OC)cc6CCN5C)ccc4O)c(OC)cc3CCN2C)cc1 ; read by: cell count ; value: 5.17 µg/mL
COc1cc2c(c(OC)c1OC)-c1ccc(N(C)C)c(=O)cc1[C@@H](NC(C)=O)CC2 ; value: 0.085 µM
O=c1cc(-c2ccccc2)sc2cc(O)ccc12 ; value: 40 µg/mL
COc1cc2c(c3ccccc3n2C)c2c(NCCN(C)C)nccc12 ; value: 0.23 µg/mL
CCC(C1=C(O)C2CCCCCC2OC1=O)c1cccc(NS(=O)(=O)c2ccc(C#N)cn2)c1 ; value: >30 µM
Cc1coc2c3c(ccc2c1=O)OC(C)(C)[C@H](OC(=O)C12CCC(C)(C(=O)O1)C2(C)C)[C@@H]3OC(=O)C12CCC(C)(C(=O)O1)C2(C)C ; value: 14.7 µM
COc1ccc(N[C@@H]2c3cc4c(cc3[C@@H](c3cc(OC)c(O)c(OC)c3)[C@H]3C(=O)OC[C@@H]32)OCO4)c([N+](=O)[O-])c1 ; value: 1.69 µg/mL
O=C(O)[C@H]1O[C@@H](Oc2c(-c3ccc(O)c(O)c3)oc3cc(O)cc(O)c3c2=O)[C@H](O)[C@@H](O)[C@@H]1O ; read by: cell count ; value: >100 µg/mL
CC(C)=CCOc1c2occc2cc2ccc(=O)oc12 ; value: 35.2 µM
Cc1cc(=O)n(C(=O)OC(C)(C)C)c2c3c(ccc12)OC(C)(C)[C@H](OC(=O)C12CCC(C)(C(=O)O1)C2(C)C)[C@@H]3OC(=O)C12CCC(C)(C(=O)O1)C2(C)C ; value: >157 µM
C=C[C@]1(C)COC(=O)[C@@]12O[C@]1(c3ccccc3)[C@@H]3C(C)=CC[C@H]([C@H](C)CCC=C(C)C)[C@@H]3[C@@H]1C2=O ; value: >25 µg/mL
Cc1c(C)c2ccc3c(c2[nH]c1=O)[C@@H](OC(=O)C12CCC(C)(C(=O)O1)C2(C)C)[C@@H](OC(=O)C12CCC(C)(C(=O)O1)C2(C)C)C(C)(C)O3 ; value: 42 µM
COc1cc([C@@H]2c3cc4c(cc3[C@@H](Nc3nc5ccccc5[nH]3)[C@H]3COC(=O)[C@H]23)OCO4)cc(OC)c1O ; value: 0.206 µg/mL
O=C1OCC2OC(=O)c3cc(O)c(O)c(O)c3-c3c(O)c(O)c(O)c4c3C(=O)OC(C2OC(=O)c2cc(O)c(O)c(O)c2-c2c1cc(O)c(O)c2O)C1OC(=O)C2C4=C(O)C(=O)C23Oc2cc(O)c4c(c2C13)O[C@H](c1ccc(O)c(O)c1)C(O)C4 ; value: 15 µM
COc1cc(=O)n(C)c2ccccc12 ; read by: cell count ; value: 22.7 µg/mL
CCC(c1cccc(NS(=O)(=O)c2ccc(C#N)cn2)c1)c1c(O)c2c(oc1=O)CCCCCC2 ; value: >30 µM
CC(C)CC(SC1CCCC1)c1c(O)cc(-c2ccccc2)oc1=O ; value: 28 µM
CC(=O)Oc1ccc2c(=O)cc(-c3ccccc3)sc2c1 ; value: 45 µg/mL
COc1cc2c3c(c1OC)-c1cc(O)ccc1C[C@H]3N(C)CC2 ; read by: cell count ; value: 29 µg/mL
O=Cc1ccc(O)cc1 ; read by: cell count ; value: 22.3 µg/mL
Cc1cn([C@H]2C[C@H](N=[N+]=[N-])[C@@H](CO)O2)c(=O)[nH]c1=O ; value: 1872 µM
COc1cc(C(=O)N[C@H]2CCc3cc(OC)c(OC)c(OC)c3-c3ccc(C(=O)c4cc(OC)c(OC)c(OC)c4)c(=O)cc32)cc(OC)c1OC ; value: 1.4 µM
Cc1cn([C@H]2C[C@H](N=[N+]=[N-])[C@@H](CO)O2)c(=O)[nH]c1=O ; read by: trypan blue ; value: >10 µg/mL
COc1c2ccoc2nc2c(OC)c(O)ccc12 ; read by: cell count ; value: 23.2 µg/mL
COc1cc2c(cc1O)CC[N+](C)(C)[C@@H]2Cc1ccc(O)cc1 ; read by: cell count ; value: >100 µg/mL
Cc1cc2ccc(=O)oc2c2c1OC(C)(C)[C@H](OC(=O)C13CCC(C)(C(=O)O1)C3(C)C)[C@@H]2OC(=O)C12CCC(C)(C(=O)O1)C2(C)C ; value: 33 µM
O=c1c(O)c(-c2ccc(O)c(O)c2)oc2cc(O)cc(O)c12 ; value: <4 µg/mL
CCCCCC[C@@H]([C@H](C)O)n1cnc2c(N)ncnc21 ; value: >50 µM
Cc1cn([C@H]2C[C@H](N=[N+]=[N-])[C@@H](CO)O2)c(=O)[nH]c1=O ; read by: MTT ; value: >0.08 µg/mL
C=COC(=O)Oc1c(OC)cc([C@@H]2c3cc4c(cc3[C@@H](O)[C@H]3COC(=O)[C@H]23)OCO4)cc1OC ; value: 0.136 µg/mL
O=c1ccn([C@H]2C[C@H](F)[C@@H](CO)O2)c(=O)[nH]1 ; value: >500 µM
Nc1nc2c(ncn2CC(CO)CCO)c(=O)[nH]1 ; value: >50 µM

A second listing of 7 rows from above:

smiles,read by,value
COc1cc(C(=O)N[C@H]2CCc3cc(OC)c(OC)c(OC)c3-c3ccc(C(=O)c4cc(OC)c(OC)c(OC)c4)c(=O)cc32)cc(OC)c1OC,-,1.4 µM
CCC(C1=C(O)C2CCCCCC2OC1=O)c1cccc(NS(=O)(=O)c2ccc(C#N)cn2)c1,-,>30 µM
CC(C)C(NC(=O)OCc1ccncc1)C(=O)N[C@@H](Cc1ccccc1)C(O)[C@H](Cc1ccccc1)NC(=O)C(NC(=O)OCc1ccncc1)C(C)C,trypan blue,>100 µM
COc1cc2c3c(c1OC)-c1cc(O)ccc1C[C@H]3N(C)CC2,cell count,29 µg/mL
O=c1c(O[C@@H]2O[C@H](CO)[C@H](O)[C@H](O)[C@H]2O[C@@H]2OC[C@@H](O)[C@H](O)[C@H]2O)c(-c2ccc(O)c(O)c2)oc2cc(O)cc(O)c12,cell count,>100 µg/mL
CCC(C1=C(O)C2CCCCC2OC1=O)c1cccc(NS(=O)(=O)c2ccc(C#N)cc2)c1,-,>30 µM
COc1cc2c(c(OC)c1OC)-c1ccc(OC)c(=O)cc1[C@@H](NC(=O)C(F)(F)F)CC2,-,0.0066 µM